Results of unrelated studies side by side (data: NIAID ChemDB).

Shared fields: tests in culture; organism: HIV-1; method: GFP; measure: EC50

Blank or dashed fields: not listed here. Lines come from different laboratories, so protocols vary. ECn is the concentration giving n% inhibition of infection, replication or growth.

SMILES	strain	mutations	cell line	conditions	result
CC(C)OC(=O)OCOc1c2c(c3n(c1=O)[C@@]1(CC[C@H]4C[C@H]41)N(C[C@H](C)OP(=O)(O)O)C3=O)CCN(Cc1ccc(F)c(Cl)c1)C2=O			MT-4	0% human serum	>4.2 µM
Nc1nc(=O)n([C@@H]2CS[C@H](CO)O2)cc1F	NL4-3	A114S/M184V	TZM-gfp		>100 µM
CC(=O)/C=C/C[C@@H](C)[C@H]1CC[C@@]2(C)[C@@H]3CC[C@H]4C(C)(C)[C@@H](O)CCC45CC35CC[C@]12C	IIIB		HOS.R5 + HOS		>5.9 µM
Cc1nc(C)c(Cn2cnc(C(F)(F)C(F)(F)F)c(Oc3cccc(C#N)c3Cl)c2=O)c(=O)[nH]1			PBMC	pseudotyped	0.45 µM
CC(C)CN(C[C@@H](O)[C@H](Cc1ccccc1)NC(=O)O[C@H]1CO[C@H]2OCC[C@H]21)S(=O)(=O)c1ccc(N)c(NCc2cncs2)c1	IIIB WT		MT-4		0.0646 µM
C/C(=C/CC[C@@H](C)[C@H]1CC[C@@]2(C)C3CCC4C(C)(C)C(=O)CC[C@@]45CC35CC[C@]12C)C(=O)O	IIIB		HOS.R5 + HOS		>44.1 µM
Cc1nc(N)c(Cn2cnc(C(F)(F)C(F)(F)F)c(Oc3cc(C(F)F)cc(C#N)c3C)c2=O)c(=O)[nH]1			PBMC	pseudotyped	0.1141 µM
CCN1C[C@H]2C[C@H](OC)c3c(C(=O)NCc4ccc(F)cc4F)c(=O)c(O)c(n32)C1=O	NL4-3		MT-4		0.0023 µM
CCOP(=O)(C[C@@H]1C[C@H](n2cc(C)c(=O)[nH]c2=O)ON1C)OCC			CEM		>1000 µM
COC1N(N(C)C)C(=O)c2c(O)c(=O)c(C(=O)NCc3ccc(F)cc3F)cn2C12COC2	NL4-3		MT4-GFP	0% human serum	0.004 µM
Nc1nc2c(ncn2COCCO)c(=O)[nH]1	CXCR4-tropic HIV pseudovirus	WT	PHA-activated CD4+ lymphoblasts		5 µM
Cc1cnn(Cc2cc3c(cc2F)C(C#CC2CC2)(C(C)(F)F)NC(=O)N3)c(=O)c1			PBMC	pseudotyped	0.069 µM
Cc1nc(C)c(Cn2cnc(C(F)(F)C(F)F)c(Oc3cc(C(F)F)cc(C#N)c3Cl)c2=O)c(=O)[nH]1			PBMC	pseudotyped	0.181 µM
Cc1ccnc2c1NC(=O)c1cccnc1N2C1CC1			MT4-GFP		0.219 µM

2 of the rows above, restated:

| SMILES | strain | mutations | cell line | conditions | result |
|---|---|---|---|---|---|
| C/C(=C/CC[C@@H](C)[C@H]1CC[C@@]2(C)C3CCC4C(C)(C)C(=O)CC[C@@]45CC35CC[C@]12C)C(=O)O | IIIB |  | HOS.R5 + HOS |  | >44.1 µM |
| Cc1nc(C)c(Cn2cnc(C(F)(F)C(F)F)c(Oc3cc(C(F)F)cc(C#N)c3Cl)c2=O)c(=O)[nH]1 |  |  | PBMC | pseudotyped | 0.181 µM |